For the data set, the system named is SARS-CoV-2 (hCoV-19/Egypt/NRC-03/2020). Description: Crystal violet assay, SARS-CoV-2 inhibitory assay (cell-based). The settings on record: SI = CC50/IC50, Vero E6 cells.

Regarding `[H]/N=C(/N)c1ccc(NCc2nc3cc(C(=O)N(CCC(=O)O)c4ccccn4)ccc3n2C)cc1` [Dabigatran, dabigatran], the “Safety Index (SI)” value was 15.10. Besides, for the setting “listed as dabigatran”, the “Safety Index (SI)” value is given as 15.1.

Turning to `CO[C@H]1O[C@H](COS(=O)(=O)O)[C@@H](O[C@@H]2O[C@@H](C(=O)O)[C@@H](O[C@H]3O[C@H](COS(=O)(=O)O)[C@@H](O[C@@H]4O[C@H](C(=O)O)[C@@H](O[C@H]5O[C@H](COS(=O)(=O)O)[C@@H](O)[C@H](O)[C@H]5NS(=O)(=O)O)[C@H](O)[C@H]4O)[C@H](OS(=O)(=O)O)[C@H]3NS(=O)(=O)O)[C@H](O)[C@H]2OS(=O)(=O)O)[C@H](O)[C@H]1NS(=O)(=O)O` [Fondaparinux sodium, fondaparinux sodium], the “Safety Index (SI)” value amounted to 17.60. The “Safety Index (SI)” value (listed as fondaparinux sodium) is 17.6. In the case of `CCCSc1nc(N[C@@H]2C[C@H]2c2ccc(F)c(F)c2)c2nnn([C@@H]3C[C@H](OCCO)[C@@H](O)[C@H]3O)c2n1` [Ticagrelor, ticagrelor], the “Safety Index (SI)” value is recorded as 25.33. As for heparin, the “Safety Index (SI)” value came out at 2.47. For the same compound, the “Safety Index (SI)” value (listed as heparin) was 2.474.

Values taken from PMC9603561, “Anticoagulants as Potential SARS-CoV-2 M^pro Inhibitors for COVID-19 Patients: In Vitro, Molecular Docking, Molecular Dynamics, DFT, and SAR Studies” (International Journal of Molecular Sciences, 2022).
